In patent US20050267156A1, “Broadspectrum 2-amino-benzothiazole sulfonamide hiv protease inhibitors” (Tibotec Pharmaceuticals Ltd., priority 2002, published 2005):

Tests used:
Assay type in all cases: cell-based
mutant HIV strain F = test: microbe, parasite or virus in culture; settings: for fold resistance Strain F: FR=EC50 (mutant strain)/EC50 (HIV-1 strain LAI)
Method: (§1) HIV- or mock-infected MT4 cells were incubated for five days in the presence of various concentrations of the inhibitor. […] Cell viability is measured by measuring the concentration of MTT, a yellow, water soluble tetrazolium dye that is converted to a purple, water insoluble formazan in the mitochondria of living cells only. Upon solubilization of the resulting formazan crystals with isopropanol, the absorbance of the solution is monitored at 540 nm. The values correlate directly to the number of living cells remaining in the culture at the completion of the five-day incubation. The inhibitory activity of the compound was monitored on the virus-infected cells and was expressed as EC50 and EC90. These values represent the amount of the compound required to protect 50% and 90%, respectively, of the cells from the cytopathogenic effect of the virus. […] The selectivity index (SI) (ratio CC50/EC50) is an indication of the selectivity of the anti-HIV activity of the inhibitor. Wherever results are reported as e.g. pEC50 or pCC50 values, the result is expressed as the negative logarithm of the result expressed as EC50 or CC50 respectively.

mutant HIV strain C = settings: FR=EC50 (mutant strain)/EC50 (HIV-1 strain LAI)
Method: as §1

mutant HIV strain B = settings: FR=EC50 (mutant strain)/EC50 (HIV-1 strain LAI)
Method: as §1

mutant HIV strain E = settings: FR=EC50 (mutant strain)/EC50 (HIV-1 strain LAI)
Method: as §1

mutant HIV strain D = settings: FR=EC50 (mutant strain)/EC50 (HIV-1 strain LAI)
Method: as §1

mutant HIV strain A = settings: FR=EC50 (mutant strain)/EC50 (HIV-1 strain LAI)
Method: as §1

Structure (SMILES): CNc1nc2ccc(S(=O)(=O)N(CC(C)C)C[C@@H](O)[C@H](Cc3ccccc3)NC(=O)OCc3cncs3)cc2s1 [Compound 18, {(1S,2R)-1-benzyl-2-hydroxy-3-[isobutyl-(2-methylamino-benzothiazole-6-sulfonyl)-amino]-propyl}-carbamic acid thiazol-5-ylmethyl ester]
- fold resistance Strain F (mutant HIV strain F): 77.6
- fold resistance Strain C (mutant HIV strain C): 3.9
- fold resistance Strain B (mutant HIV strain B): 3.2
- fold resistance Strain E (mutant HIV strain E): 4.8
- fold resistance Strain D (mutant HIV strain D): 11.2
- fold resistance Strain A (mutant HIV strain A): 16.2

Structure (SMILES): CNc1nc2ccc(S(=O)(=O)N(CC(C)C)C[C@@H](O)[C@H](Cc3ccccc3)NC(=O)OCc3cncs3)cc2s1.O=C(O)C(F)(F)F [Compound 19, {(1S,2R)-1-benzyl-2-hydroxy-3-[isobutyl-(2-methylamino-benzothiazole-6-sulfonyl)-amino]-propyl}-carbamic acid thiazol-5-ylmethyl ester trifluoroacetate]
- fold resistance Strain F (mutant HIV strain F): 51.3
- fold resistance Strain C (mutant HIV strain C): 4.3
- fold resistance Strain B (mutant HIV strain B): 5.1
- fold resistance Strain E (mutant HIV strain E): 4.1
- fold resistance Strain D (mutant HIV strain D): 12.0
- fold resistance Strain A (mutant HIV strain A): 14.1

Structure (SMILES): CNc1nc2ccc(S(=O)(=O)N(CC(C)C)C[C@@H](O)[C@H](Cc3ccccc3)NC(=O)c3cccc(N)c3C)cc2s1.O=C(O)C(F)(F)F [Compound 20, 3-amino-N-{(1S,2R)-1-benzyl-2-hydroxy-3-[isobutyl-(2-methylamino-benzothiazole-6-sulfonyl)-amino]-propyl}-2-methyl-benzamide trifluoroacetate]
- fold resistance Strain F (mutant HIV strain F): 158.5
- fold resistance Strain C (mutant HIV strain C): 8.3
- fold resistance Strain B (mutant HIV strain B): 5.1
- fold resistance Strain E (mutant HIV strain E): 5.4
- fold resistance Strain D (mutant HIV strain D): 8.7
- fold resistance Strain A (mutant HIV strain A): 66.1

Structure (SMILES): CNc1nc2ccc(S(=O)(=O)N(CC(C)C)C[C@@H](O)[C@H](Cc3ccccc3)NC(=O)c3cccc(O)c3C)cc2s1.O=C(O)C(F)(F)F [Compound 23, N-{(1S,2R)-1-benzyl-2-hydroxy-3-[isobutyl-(2-methylamino-benzothiazole-6-sulfonyl)-amino]-propyl}-3-hydroxy-2-methyl-benzamide trifluoroacetate]
- fold resistance Strain F (mutant HIV strain F): 1380.4
- EC50 (mutant HIV strain F; Human immunodeficiency virus 1, MT4, read-out: pEC50 Strain F, mutant HIV strain F, MT4 cells (converted)): 6.31 µM
- fold resistance Strain C (mutant HIV strain C): 1.9
- fold resistance Strain B (mutant HIV strain B): 2.1
- fold resistance Strain E (mutant HIV strain E): 1.6
- fold resistance Strain D (mutant HIV strain D): 4.7
- fold resistance Strain A (mutant HIV strain A): 63.1
